Test results published in publication PMC7765388, “Synthesis and In Vitro Antiprotozoan Evaluation of 4-/8-Aminoquinoline-based Lactams and Tetrazoles” (Molecules, 2020).

Test system: P. falciparum K1 strain
Test: In vitro antiplasmodium activity, 3H-hypoxanthine incorporation assay
Assay type: cell-based, Plasmodium falciparum
Conditions: for Selectivity Indices (SI) [(IC50 L6 Cell Line)/(IC50 K1 strain)]: L6 vs K1
Procedure: Antiplasmodial activity on the K1 strain, antitrypanosomal activity on T. b. brucei rhodesiense STIB900 and cytotoxicity on the L6 mammalian cell-line were all carried out at the Swiss Tropical and Public Health Institute (STPH), Switzerland as follows:
In vitro activity against erythrocytic stages of P. falciparum was determined using a ^3H-hypoxanthine incorporation assay, using the chloroquine and pyrimethamine-resistant K1 strain that originates from Thailand and the standard drug chloroquine (Sigma C6628). Compounds were dissolved in DMSO at 10 mg/mL and added to parasite cultures incubated in RPMI 1640 medium without hypoxanthine, supplemented with HEPES (5.94 g/L), NaHCO3 (2.1 g/L), neomycin (100 U/mL), Albumax^R (5 g/L) and washed human red cells A^+ at 2.5% hematocrit (0.3% parasitemia). Serial drug dilutions of eleven three-fold dilution steps covering a range from 100 to 0.002 μg/mL were prepared. The 96-well plates were incubated in a humidified atmosphere at 37 °C; 4% CO2, 3% O2, 93% N2. After 48 h, 50 μL of ^3H-hypoxanthine (= 0.5 μCi) was added to each well of the plate. The test compounds were tested in triplicate ad parasite growth compared to control or blank well. The plates were incubated for a further 24 h under the same conditions. The plates were then harvested with a Betaplate™ cell harvester (Wallac, Zurich, Switzerland), and the red blood cells transferred onto a glass fiber filter then washed with distilled water. The dried filters were inserted into a plastic foil with 10 mL of scintillation fluid and counted in a Betaplate™ liquid scintillation counter (Wallac, Zurich, Switzerland). IC50 values were calculated from sigmoidal inhibition curves by linear regression using Microsoft Excel.

Molecule	Selectivity Indices (SI) [(IC50 L6 Cell Line)/(IC50 K1 strain)]	further results
1-[2-(7-Chloroquinolin-4-ylamino)ethyl]-4-(4-chlorophenyl)-3-methoxyazetidin-2-one [Compound 4e]	38	fold more active than primaquine (antiplasmodium) (K1 strain, vs primaquine): 2 fold
N-{5-[(1-tert-butyl-1H-tetrazol-5-yl)(3,4-dichlorophenyl)methylamino]pentan-2-yl}-6-methoxyquinolin-8-amine [Compound 6d]	67	fold less active than chloroquine (antiplasmodium) (K1 strain, vs chloroquine): 6 fold; fold less active than primaquine (antiplasmodium) (K1 strain, vs primaquine): 2 fold
N-{5-[(1-tert-butyl-1H-tetrazol-5-yl)(4-chlorophenyl)methylamino]pentan-2-yl}-6-methoxyquinolin-8-amine [Compound 6e]	17	–
1-[2-(7-Chloroquinolin-4-ylamino)ethyl]-3-methoxy-4-(4-methoxyphenyl)azetidin-2-one [Compound 4b]	33	–
N-{5-[(1-tert-butyl-1H-tetrazol-5-yl)(p-tolyl)methylamino]pentan-2-yl}-6-methoxyquinolin-8-amine [Compound 6c]	8	–
1-[2-(7-Chloroquinolin-4-ylamino)ethyl]-3-methoxy-4-p-tolylazetidin-2-one [Compound 4c]	160	–
N-{5-[(1-tert-butyl-1H-tetrazol-5-yl)(phenyl)methylamino]pentan-2-yl}-6-methoxyquinolin-8-amine [Compound 6a]	4	–
COC1C(=O)N(CCNc2ccnc3cc(Cl)ccc23)C1c1ccc(Cl)c(Cl)c1 (centres unmarked) [Compound 4d, 1-[2-(7-Chloroquinolin-4-ylamino)ethyl]-4-(3,4-dichlorophenyl)-3-methoxyazetidin-2-one]	–	fold more active than primaquine (antiplasmodium) (K1 strain, vs primaquine): 3 fold
